Assay results reported in US6696494B2, “α-hydroxyarylbutanamine inhibitors of aspartyl protease” (Enanta Pharmaceuticals, Inc., priority 2001, dated 2004).

biological target: HIV-1 protease (Human immunodeficiency virus type 1 group M subtype B, UniProt P04585); experiment: Inhibition of microbial expressed viral protease (HIV-1 protease), method of Toth and Marshall; type: biochemical; details: read-out: IC50 in μM; Table 1
Protocol: Biological Assay for Inhibition of Microbial Expressed Viral Protease
The inhibition constants against HIV-1 protease were measured using the method described by M. V. Toth and G. R. Marshall, Int. J. Peptide protein Res., 1990, 544. The method described M. W. Pennington et al., Peptides 1990, Gimet, E. and D. Andrew, Eds., Escom; Leiden, Netherlands (1990) may also be used. The potency is measured as IC50in μM. The person of skill would accept these tests as predictive of the compounds' utility in vivo to treat HIV infected patients.

`CC(C)(C)NC(=O)c1ccccc1CC[C@@H](O)[C@H](Cc1ccccc1)NC(=O)c1c(Cl)cccc1Cl` and `CC(C)(C)NC(=O)c1ccccc1CC[C@@H](O)[C@H](Cc1ccccc1)NC(=O)c1cccc(Cl)c1Cl` cannot be ordered by IC50: under 0.1 µM for the first, under 0.1 µM for the second.

`Cc1cc(C)c(OCC(=O)N[C@@H](Cc2ccccc2)[C@H](O)CCc2ccccc2C(=O)NC(C)(C)C)c(C)c1` and `CCOC(=O)N[C@@H](Cc1ccccc1)[C@H](O)CCc1ccccc1C(=O)NC(C)(C)C` cannot be ordered by IC50: under 0.1 µM for the first, under 0.1 µM for the second.

First: CC(C)(C)NC(=O)c1cc(O)ccc1CC[C@@H](O)[C@H](Cc1ccccc1)NC(=O)OC(C)(C)C
Second: CC(C)(C)OC(=O)N[C@@H](Cc1ccccc1)[C@H](O)CCc1ccccc1C(=O)N[C@@H](CO)c1ccccc1
The IC50 of the first is higher: over 10 µM for the first, 0.1 to 10 µM for the second.

same assay, conditions: read-out: IC50 in μM; Table 2

First: CC(C)(C)NC(=O)c1cc([N+](=O)[O-])ccc1/C=C/[C@@H](O)[C@H](Cc1ccccc1)NC(=O)OC(C)(C)C
Second: Cc1cccc(C)c1OCC(=O)N[C@@H](Cc1ccccc1)[C@H](O)/C=C/c1cccc(C)c1C(=O)NC(C)(C)C
The IC50 of the first is higher: 0.1 to 10 µM for the first, under 0.1 µM for the second.

Compared with `Cc1cccc(C)c1OCC(=O)N[C@@H](Cc1ccccc1)[C@H](O)/C=C/c1cccc(F)c1C(=O)NC(C)(C)C`, `Cc1cccc(C(=O)NC(C)(C)C)c1/C=C/[C@@H](O)[C@H](Cc1ccccc1)NC(=O)COc1c(C)cccc1C` is lower in IC50: 0.1 to 10 µM for the first, under 0.1 µM for the second.
